PubChem BioAssay AID1259414, Drosophila RNAi Screening Center – 2018
Screen: 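Genome-wide screen for host control of endosymbiont load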 (primary screen). System: Drosophila JW18 cells infected with Wolbachia. Reagents: long dsRNA against Drosophila genes, 0.25 µg dsRNA per well of a 384-well plate. Timing: 5 days. Challenge: cells persistently infected with Wolbachia before knock-down; no added drug. Measured: 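Imaged fluorescence in situ signal for Wolbachia 23S rRNA per DAPI-counted host cell, given as a robust z-score within each plate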. Direction: Wolbachia per cell robust z: higher = more Wolbachia per host cell than the plate typical. Hit rule: 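Active if absolute robust z reaches 1.5 in two or more of three replicates, leaving out multi- or no-target dsRNAs, genes unexpressed in JW18 and A1 wells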.
The screen tested about 24,000 reagents; shown is a random part of those that have a named target and a result. Of all reagents, about 1,210 (5%) are marked active. 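Inactive calls also include excluded dsRNAs with several or no targets, genes unexpressed in JW18, and well A1, regardless of score.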 Entries without a mark were called inactive. Reagents against one gene are numbered here.

Gene,reagent,"Wolbachia per cell robust z, rep 1","Wolbachia per cell robust z, rep 2","Wolbachia per cell robust z, rep 3"
RhoGAP92B,1,-3.76,0.116,1
RhoGAP92B,2,0.72,0.347,0.118
CG14050,1,0.519,-0.504,0.274
daed,1,-1.41,0.914,0.0988
CR1075,1,0.729,0.0965,-0.914
Ncoa6,1,0.86,1.34,0.289
Ncoa6,2,-0.535,1.39,0.879
pll,1,-0.274,1.32,-0.451
pll,2,0.81,1.12,0.755
ATPsynbeta,1,-0.165,1.12,0.767
ATPsynbeta,2,0.0595,0.967,1.13
whd,1,0.00387,0.616,0.0218
RpLP2,1,1.81 (active),1.76,1.2
RpLP2,2,-1.12,1.24,0.379
MESR4,1,-1.9 (active),-2.62,1.37
arr,1,0.109,0.00335,0.192
arr,2,-0.308,0.384,0.0764
CG4872,1,-0.244,-0.0974,-1.38
Rh2,1,-0.196,0.126,-0.431
Rh2,2,-0.0354,3.27,0.207
CG1136,1,0.695,-0.686,-1.08
b6,1,0.281,0.53,0.812
b6,2,1.02,0.459,1.39
Csk,1,-0.152,-0.156,0.199
Csk,2,0.151,0.342,1.06
Csk,3,0.638,0.781,-0.703
jet,1,-0.456,-0.659,0.0484
jet,2,-0.457,-4.01,-0.0925
Raf,1,-0.993,0.5,-2.44
Raf,2,0.459,1.18,-1.12
Raf,3,0.735,-0.521,0.783
Aduk,1,-0.731,1.4,1.05
Aduk,2,-6.18,-0.531,0.537
CG15545,1,0.684,0.194,-4.13
CG15545,2,0.145,-6.59,0.625
CG34444,1,0.0634,-0.751,-2.28
CG34444,2,1.07,0.00349,-0.771
Cyp1,1,0.23,0.0355,-0.148
Cyp1,2,-0.177,0.722,0.0639
Nhe2,1,-1.02,0.398,0.207
Nhe2,2,1.12,0.295,-0.162

In a second layout: results already given.
RpLP2 #1
- Wolbachia per cell robust z, rep 1: 1.81 (active)
- Wolbachia per cell robust z, rep 2: 1.76
- Wolbachia per cell robust z, rep 3: 1.2

RpLP2 #2
- Wolbachia per cell robust z, rep 1: -1.12
- Wolbachia per cell robust z, rep 2: 1.24
- Wolbachia per cell robust z, rep 3: 0.379

MESR4
- Wolbachia per cell robust z, rep 1: -1.9 (active)
- Wolbachia per cell robust z, rep 2: -2.62
- Wolbachia per cell robust z, rep 3: 1.37

arr #1
- Wolbachia per cell robust z, rep 1: 0.109
- Wolbachia per cell robust z, rep 2: 0.00335
- Wolbachia per cell robust z, rep 3: 0.192

arr #2
- Wolbachia per cell robust z, rep 1: -0.308
- Wolbachia per cell robust z, rep 2: 0.384
- Wolbachia per cell robust z, rep 3: 0.0764

CG4872
- Wolbachia per cell robust z, rep 1: -0.244
- Wolbachia per cell robust z, rep 2: -0.0974
- Wolbachia per cell robust z, rep 3: -1.38

Rh2 #1
- Wolbachia per cell robust z, rep 1: -0.196
- Wolbachia per cell robust z, rep 2: 0.126
- Wolbachia per cell robust z, rep 3: -0.431

Rh2 #2
- Wolbachia per cell robust z, rep 1: -0.0354
- Wolbachia per cell robust z, rep 2: 3.27
- Wolbachia per cell robust z, rep 3: 0.207

CG1136
- Wolbachia per cell robust z, rep 1: 0.695
- Wolbachia per cell robust z, rep 2: -0.686
- Wolbachia per cell robust z, rep 3: -1.08

b6 #1
- Wolbachia per cell robust z, rep 1: 0.281
- Wolbachia per cell robust z, rep 2: 0.53
- Wolbachia per cell robust z, rep 3: 0.812

b6 #2
- Wolbachia per cell robust z, rep 1: 1.02
- Wolbachia per cell robust z, rep 2: 0.459
- Wolbachia per cell robust z, rep 3: 1.39

Continued:
Gene,reagent,"Wolbachia per cell robust z, rep 1","Wolbachia per cell robust z, rep 2","Wolbachia per cell robust z, rep 3"
CG10747,1,1.06,0.679,-3.17
CAH4,1,0.87,0.497,0.416
CG11585,1,0.101,0.375,1.03
CG11585,2,-5.92,-0.852,-0.461
TyrRII,1,0.786,1.36,-0.218
TyrRII,2,0.288,0.23,1.02
RIOK1,1,0.697,0.744,0.719
Shaw,1,0.0663,-0.816,-1.09
Shaw,2,-2.09,-4.77,-3.11
Shaw,3,0.742,-0.377,-1.21
CG17010,1,-0.0247,-0.681,-0.0698
CG17010,2,0.257,-0.636,-0.0685
CG14182,1,-2.25 (active),-1.75,1.14
CG11999,1,0.643,-0.397,0.872
PpD3,1,-1.66,-0.656,0.0692
CG34323,1,2.69,-2.65,1.11
CG7848,1,-0.948,1.03,0.617
CCT1,1,0.169,0.216,1.01
CCT1,2,0.32,0.127,-0.498
mrn,1,0.157,-1.34,0.22
CG5112,1,0.441,-1.05,0.308
CG34223,1,-1.04,-0.503,-0.198
Osi21,1,-0.718,0.966,-0.731
Dp1,1,-0.095,-0.87,-0.0988
t-cup,1,-0.859,-0.47,-0.148
t-cup,2,-1.49,-1.88,-0.635
Gmer,1,0.384,0.835,0.634
Gmer,2,0.337,0.827,0.849
CG8155,1,1.11,0.286,-0.697
CG8155,2,-1.47,-0.559,-0.953
CG8155,3,-3.8 (active),-1.67,-2.59
p38a,1,-5.28 (active),0.661,-5.59
CG1785,1,1.19,0.0393,-0.481
CG1785,2,0.716,-0.583,-0.362
CG1648,1,0.303,-5.84,-0.284
CG1648,2,-0.564,0.68,-1.31
lectin-22C,1,-2.46,-1.04,-2.28
CG42814,1,-0.6,-0.155,0.0249
PolE2,1,0.185,-0.873,-0.835
Hsc70-1,1,-0.978,0.395,1.29
Hsc70-1,2,-0.174,-0.551,-0.233
CG4914,1,-0.274,0.137,-0.305
Nepl3,1,0.593,0.482,-0.572
bnl,1,0.624,-0.229,-0.741
bnl,2,0.975,0.924,0.706
bnl,3,-1.26,-0.0461,-0.172
